## Percent effect of library compounds

Data taken from ChEMBL document CHEMBL3988442, “University of Dundee, Small-Polar-MMV Screening Library” (2021).

A: 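Growth of Mycobacterium tuberculosis over 3 days (7H9 medium with glucose and tyloxapol); the read-out is not stated. Compounds at 50 µM. Higher reads as more growth inhibition (inferred: compounds with an IC50 in retests scored well above the rest). Size under these conditions: about 69,000 compounds, about 760 of them at 50% or above in at least one test.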
B: 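Whole-cell growth test on Mycobacterium tuberculosis, read after 4 days in a medium based on cholesterol and the lipid DPPC; the read-out is not stated. Tested at 50 µM. The record gives no direction; compounds that gave an IC50 in retests scored well above the rest, so higher reads as more growth inhibition. Of about 69,000 compounds tested this way, about 370 (0.54%) reached 50% or more in at least one test.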

Results are given as percent effect. The record does not define 0% and 100%; most values in the screen are far below 50% and negative numbers occur (in some assays of this library far below -100). This is part of a subset picked to be rich in strong results. Two or more numbers in one place are separate tests of the same structure; such repeats can differ widely. A dash means the value is not listed here; it may have been measured.

structure	A	B
CN(Cc1ccncc1)C(=O)NCc1nnc2n1CCCCC2	-	-22.05
CCCn1nc(-c2nc(COC)no2)ccc1=O	-6.308	-
NCCn1nc(C2CCN(Cc3ccccc3)C2)c2nccnc21 (stereo not given)	-	7.931
Cc1nc(-c2cccc(N3CCC(NC4CCOCC4)CC3)c2)cs1	-5.095	-3.591
CC(=O)N1CCC(n2ccc(-c3cnc(NCC(C)C)nc3)n2)CC1	52.34	-
Cc1cc(NC(=O)C(C)Cn2cc(Br)cn2)no1 (stereo not given)	19.82	-
CCN(Cc1cnn(C)c1)C[C@H]1CC[C@@H](Cc2cccc(CN)c2)O1	-	51.85
Cc1cc(Cc2ccccc2F)cc(C2CCCNC2)n1 (stereo not given)	8.744	-
COc1ccc(C[C@H]2CN(C(=O)C3CC3)CC[C@H]2OC)cc1	-7.852	4.934
Cc1nn(C)c(C)c1C1CCCN1C(=O)c1ccc(N(C)C)nn1 (stereo not given)	4.675	-
CO[C@H]1CCN(c2ncccn2)[C@H]1Cc1ccccc1	-16.29	-
COC1(CNC(=O)c2cccc(C#N)c2)CCSC1 (stereo not given)	-	97.17
COC(=O)NCc1ccc(NC(=O)CC2=CCCCC2)cc1	-	14.1 and 7.396
CN(C)Cc1ccnc(NS(=O)(=O)CCc2ccccc2)c1	-9.328	23.67
CN(C)[C@H]1C[C@@H](Cc2cc(CO)on2)C1(C)C	15.7 and -0.2501	-
CN(C)S(=O)(=O)N1CCC(Oc2ccccn2)CC1	13.64	-1.896
Cc1cccc(CNC(CN2CCN(C)CC2)c2ccccc2)c1 (stereo not given)	53.18	-
CCCc1nc(N(C)Cc2ccco2)c2c(n1)c(C)nn2CC	58.5	53.88
Cc1ccc(CCC(=O)N2CCCC(c3cc(C(N)=O)[nH]n3)C2)cc1 (stereo not given)	-8.961	-
Cc1nn(-c2ccccc2)nc1C(=O)NCC(c1ccsc1)N(C)C (stereo not given)	-5.448	18.12
c1ccc(Cc2n[nH]c(C3CCOC3)n2)cc1 (stereo not given)	-	2.363
COc1cc(OC)cc(N2CCC(NC(=O)c3cccn3C)CC2)c1	12.18	7.143
Cc1nsc(C(=O)NCCc2cccs2)n1	54.99	47.14
[H][C@@]12CC[C@H](Oc3ccccc3Cl)[C@]1([H])CN(C(=O)COCCOC)C2	-	-15.23
OC(COCc1cccs1)Cn1cc(Br)cn1 (stereo not given)	7.768 and 12.93	0.2778
CS(=O)(=O)CCN1CCC(=Cc2ccccc2)CC1	18.6	-2.791
NC(=O)C1CCN(C(=O)CCn2ccc3ccc(Br)cc32)CC1	-	7.931
Cc1[nH]ncc1C(=O)N1CCOC(c2cccs2)C1 (stereo not given)	-20.38	-2.124
COCCOCC(=O)Nc1ccc(C)cc1F	-	3.862
CN(CCCOc1ccccc1)C(=O)c1csc(-c2nnc[nH]2)n1	-	0.3459 and 51.78
COC(=O)c1ccc(/C=C/c2ncc(C(=O)O)s2)cc1	-	-16.35
Fc1ccc(CCC2CCCN(Cc3c[nH]cn3)C2)c(F)c1 (stereo not given)	34.69	12.28
CC(C)N(C)S(=O)(=O)N(Cc1cccs1)Cc1cccs1	5.986 and 42.33	-
CNS(=O)(=O)CCCn1nnc(-c2ccc(F)c(C)c2)n1	30.27	37.34 and 4.073
O=C(NCCc1[nH]nc2c1CCCC2)C1CCCN(Cc2ccco2)C1 (stereo not given)	-	2.908 and 4.409
CC(C)COc1cncc(NCC(O)c2ccco2)n1 (stereo not given)	-21.23	-
CC(NC(=O)c1cc(-c2cccc(Cl)c2)no1)C(=O)N(C)C (stereo not given)	3.798	-15.47
CCN(CC)CCNC(=O)c1cc(C(C)C)nc(N2CCCC2)n1	-33.27	-
O=C(c1cc(C2CC2)[nH]n1)N1CCN(Cc2ccccc2)CC1	51 and 31.19	17.31
O=C(O)C(F)(F)F.O=C(O)C(F)(F)F.O=C(O)C(F)(F)F.[H][C@]12C[C@@H](CN3CCCC3)N(C(C)C)[C@@]1([H])CCN(Cc1ccoc1)C2	-13.5 and 71.33	-
Cc1nc(CNCC2COCc3c(-c4ccoc4)nnn3C2)cs1 (stereo not given)	70.19	-
O=C(CN1CCCC1Cn1cncn1)NCCOc1ccc(F)cc1 (stereo not given)	-1.062	-
O=C(C1CCS(=O)(=O)CC1)N1CCC(Cc2ccc(F)cc2)CC1	-45.36	-
OCC(O)CSCc1ccc(Cl)cc1Cl (stereo not given)	6.197	12.05
O=C(CCC(F)(F)F)N1CCCC(CO)(CC2CC2)C1 (stereo not given)	51.95 and 41.89	51.76
CC(C)(C)NC(=O)NC(=O)CNC(C)(C)c1ccc2c(c1)OCCO2	18.74	-
Cc1noc(C)c1CNC(=O)c1ccc(NC2CC2)nc1	11.87	-
O=C(O)c1ccnc(-c2ccnc(COc3ccc(Cl)cc3)n2)c1	-	-34.89
Cc1c[nH]c(CN2CCC3(CCCN(Cc4ccc(F)c(F)c4)C3)C2)n1 (stereo not given)	51.36	-
CCCn1nccc1C(=O)Nc1ncc(C)s1	-18.8 and 14.15	-
Cn1nnc(NCc2ccc(-c3ccc(Cl)cc3)o2)n1	53.11 and 35.24	-
Cl.O=c1c2sccc2nc2n1CCN(Cc1ccsc1)CC2	9.027	11.23
O=C(c1ccc(NCc2cccc(F)c2)cc1)N1CCC(CO)CC1	-	-5.397
[H][C@@]12OCCN(C(=O)COc3ccccc3)[C@@]1([H])CC[C@@H]2OCC	22.26	-
CC(C)(C)c1n[nH]cc1CN1CCc2nc3ccsc3c(=O)n2CC1	-29.81	-0.6749
O=C1CC2(CCSC2)C(=O)N1Cc1ncc(-c2ccccc2)o1 (stereo not given)	31.23 and 51.15	-
Fc1cccc(-c2cccc(N3CCC(NC4CCCOC4)CC3)c2)c1 (stereo not given)	61.92	68.98
Cc1nc(CN2CCc3nc(N4CCCC4)nc(NC(C)C)c3C2)cs1	58.21 and 55.22	-
CN1CCC(Nc2ccc(F)cc2OCC(F)(F)F)C1=O (stereo not given)	9.636	-
CC(=O)N1CCC(C(=O)Nc2nc(C3CC3)cs2)CC1	-42.59	-
CC(C)Oc1ccccc1CNC(=O)c1[nH]ncc1Br	-15.89 and 32.88	-
COc1cccc(Nc2nc(N3CCCC3)nc3c2CNCC3)c1.Cl	54.07	30.77
CC(C)C[C@H](N)COc1cccc(F)c1Oc1ccccc1	23.35	15.45
Cc1csc(N2CCN(C(=O)Cc3ccc(C)s3)CC2)n1	-22.23	-
COCC(=O)NC(C)Cc1cccc(OC)c1 (stereo not given)	43.69	-
CCOCCCn1c(NC(=O)c2ccc(C)nc2)nc2ccccc21	3.192	-
CC(CO)NC(=O)Nc1ccc(CC#N)cc1 (stereo not given)	5.733 and 6.187	6.282
Cc1ccccc1CS(=O)(=O)Cc1nc(C2CC2)no1	15.15	0.5152
Cc1cc(C)n(CCN2CCN(C(=O)c3cc4ccccc4o3)CC2)n1	11.76 and 23.21	-

The first 6 entries again:

structure,A,B
CN(Cc1ccncc1)C(=O)NCc1nnc2n1CCCCC2,-,-22.05
CCCn1nc(-c2nc(COC)no2)ccc1=O,-6.308,-
NCCn1nc(C2CCN(Cc3ccccc3)C2)c2nccnc21 (stereo not given),-,7.931
Cc1nc(-c2cccc(N3CCC(NC4CCOCC4)CC3)c2)cs1,-5.095,-3.591
CC(=O)N1CCC(n2ccc(-c3cnc(NCC(C)C)nc3)n2)CC1,52.34,-
Cc1cc(NC(=O)C(C)Cn2cc(Br)cn2)no1 (stereo not given),19.82,-